A mixed list of measured activities; the numbers were collected in NIAID ChemDB.

All rows: tests on isolated targets

Inhibition is in % at the dose shown (toxicity tests: loss of growth or viability). Blank or dashed fields: not listed here. ICn is the concentration giving n% inhibition. Conditions beyond the fields shown may differ between rows. a–b is a range or a potency band.

compound	changes	protein	organism	dose	method	strain or isolate	endpoint	value
CSCCCN1C(=O)c2ccccc2C(CC(=O)c2ccccc2)C1=O		Protease	Rhinovirus			Serotype 14	IC50	>100 µM
O=C(Nc1nnc(NCCc2c[nH]c3ccccc23)s1)c1ccc([N+](=O)[O-])o1		Polymerase	Human cytomegalovirus				IC50	<25 µM
C[C@H](CO)[C@@H](OC(N)=O)[C@@H]1OC(C(=O)O)=C[C@H](N)[C@H]1NC(=O)O		Sialidase	Influenza B virus			Victoria	IC50	0.41 µM
CCOC(=O)CCCN1C(=O)c2ccccc2C(C(=O)c2ccccc2)C1=O		Protease	Rhinovirus			Serotype 2	IC50	3.9 µM
COc1ccc(S(=O)(=O)N(C[C@@H](O)[C@H](Cc2ccccc2)NC(=O)O[C@H]2CO[C@@H]3OCC[C@@H]32)CC(C)(C)CCC#N)cc1		Protease	HIV-1		fluorescence		Ki	0.001–0.01 µM
COc1ccc(Cl)cc1-c1cncc(N2CCN(c3ccncc3)CC2)n1		UL97 kinase	Cytomegalovirus				IC50	<100 µM
Clc1cc(CN2CCCNCCNCCCNCC2)cc(Cl)n1	CXCR4-H113A	CXCR4					IC50	2.02 µM
N[C@@H](CS)C(=O)N[C@@H](Cc1ccccc1)C(=O)N1CCC[C@H]1C(=O)N[C@@H](Cc1c[nH]c2ccccc12)C(=O)NCC(=O)N[C@@H](CS)C(=O)O		Polymerase	Respiratory syncytial virus				IC50	>150 µM
O=C(Nc1nnc(NC2CCCCCC2)s1)c1cc(F)cc(F)c1		Polymerase	Human cytomegalovirus				IC50	>25 µM
CC(=O)NCCCCCC(C)(C)CN(C[C@@H](O)[C@H](Cc1ccccc1)NC(=O)O[C@H]1CO[C@H]2OCC[C@H]21)S(=O)(=O)c1ccc2c(c1)OCO2		Protease	HIV-1		fluorescence		Ki	<0.001 µM
O=C(Nc1ccccc1)Nc1ccsc1-c1nc(C(=O)O)c(O)c(=O)[nH]1		HCV polymerase	Hepatitis C virus				IC50	<25 µM
Cc1cc(C)cc(-c2cncc(N3CCN(c4ccc(F)cc4)CC3)n2)c1		UL97 kinase	Cytomegalovirus	10 µM			inhibition	>15%
CC(=O)CC1(O)c2c3[nH]c4ccccc4c3cc[n+]2C2C=CC=CC21		p56lck tyrosine kinase			ELISA		IC50	<600 µM
C[C@H](CO)[C@@H](OC(=O)NCCO[C@@H]1O[C@@H](CO)[C@H](O)[C@@H](O)[C@H]1O)[C@@H]1OC(C(=O)O)=C[C@H](N=C(N)N)[C@H]1NC(=O)O		Sialidase	Influenza A virus			H3N2 AICHI	IC50	0.013 µM
CCN(CC)C(=O)NCCCCC(C)(C)CN(C[C@@H](O)[C@H](Cc1ccccc1)NC(=O)O[C@H]1CO[C@H]2OCC[C@H]21)S(=O)(=O)c1ccc2c(c1)OCO2		Protease	HIV-1		fluorescence		Ki	<0.001 µM
CCOc1ccc(-c2cncc(N3CCN(c4ccccc4OC)CC3)n2)cc1		UL97 kinase	Cytomegalovirus	10 µM			inhibition	>15%
O=c1[nH]cnc2c1ncn2[C@@H]1O[C@H](CO)[C@@H](O)[C@H]1O		DHPS	Pneumocystis carinii	1000 µM			inhibition	0%
O=C(/C=C/c1ccccc1Cl)Nc1nnc(NCc2cccs2)s1		Polymerase	Human cytomegalovirus				IC50	<25 µM
CON(C)C(=O)OCCC(C)(C)CN(C[C@@H](O)[C@H](Cc1ccccc1)NC(=O)O[C@H]1CO[C@H]2OCC[C@H]21)S(=O)(=O)c1ccc2c(c1)OCO2		Protease	HIV-1		fluorescence		Ki	<0.001 µM
CCCOc1ncnc2c1ncn2[C@@H]1O[C@H](CO)[C@@H](O)[C@@H]1O		Thymidine kinase	Varicella zoster virus			OKA	Ki	1200 µM
CN1C(=O)c2ccccc2C(CC(=O)c2ccc(F)cc2)C1=O		Protease	Rhinovirus			Serotype 14	IC50	56.2 µM
O=C(Cc1ccccc1)Nc1cccc(S(=O)(=O)NC(=O)Nc2cscc2-c2nc(C(=O)O)c(O)c(=O)[nH]2)c1		HCV polymerase	Hepatitis C virus				IC50	<25 µM
CC(C)(CCCCNC(=O)c1cc(F)cc(F)c1)CN(C[C@@H](O)[C@H](Cc1ccccc1)NC(=O)O[C@H]1CO[C@H]2OCC[C@H]21)S(=O)(=O)c1ccc2c(c1)OCO2		Protease	HIV-1		fluorescence		Ki	<0.001 µM
CCOc1ncnc2c1ncn2[C@@H]1O[C@H](CO)[C@@H](O)[C@@H]1O		Thymidine kinase	Varicella zoster virus			OKA	Ki	870 µM
C[C@H](CO)[C@@H](OC(=O)NCCCCNCCN)[C@@H]1OC(C(=O)O)=C[C@H](N=C(N)N)[C@H]1NC(=O)O		Sialidase	Influenza A virus			H3N2 AICHI	IC50	0.077 µM
O=C(O)c1nc(-c2ccccc2NS(=O)(=O)c2cccc3cccnc23)[nH]c(=O)c1O		HCV polymerase	Hepatitis C virus				IC50	<100 µM
CSCCCN1C(=O)c2ccccc2C(C(=O)c2ccccc2)C1=O		Protease	Rhinovirus			Serotype 14	IC50	56 µM
C[C@H](CO)[C@@H](OC(=O)N(C1CCCCC1)C1CCCCC1)[C@@H]1OC(C(=O)O)=C[C@H](N)[C@H]1NC(=O)O		Sialidase	Influenza A virus			H3N2 AICHI	IC50	100 µM
O=C(NCCc1ccccc1)Nc1cscc1-c1nc(C(=O)O)c(O)c(=O)[nH]1		HCV polymerase	Hepatitis C virus				IC50	<25 µM
c1ccc(Oc2ccc(-c3cncc(N4CCN(c5ccncc5)CC4)n3)cc2)cc1		UL97 kinase	Cytomegalovirus				IC50	<10 µM
CC(C)NC(=S)NCCCCC(C)(C)CN(C[C@@H](O)[C@H](Cc1ccccc1)NC(=O)O[C@H]1CO[C@H]2OCC[C@H]21)S(=O)(=O)c1ccc2c(c1)OCO2		Protease	HIV-1		fluorescence		Ki	<0.001 µM
NC(C(=O)Nc1ccsc1-c1nc(C(=O)O)c(O)c(=O)[nH]1)c1cc(F)cc(F)c1		HCV polymerase	Hepatitis C virus				IC50	<25 µM
FC(F)(F)c1cccc(N2CCN(c3cncc(-c4ccccc4Oc4ccccc4)n3)CC2)c1		UL97 kinase	Cytomegalovirus	10 µM			inhibition	>15%
CC(C)(CCCNC(=O)O[C@@H]1CCOC1)CN(C[C@@H](O)[C@H](Cc1ccccc1)NC(=O)O[C@H]1CO[C@H]2OCC[C@H]21)S(=O)(=O)c1ccc2c(c1)OCO2		Protease	HIV-1		fluorescence		Ki	<0.001 µM
O=C(Nc1nnc(NCCCNC2CCCCC2)s1)c1ccc(Cl)c(Cl)c1		Polymerase	Human cytomegalovirus				IC50	>25 µM
CC(C)(CCCCNS(C)(=O)=O)CN(C[C@@H](O)[C@H](Cc1ccccc1)NC(=O)O[C@H]1CCOC1)S(=O)(=O)c1ccc2c(c1)OCO2		Protease	HIV-1		fluorescence		Ki	<0.001 µM
O=C(CC1CCCCC1)Nc1ccsc1-c1nc(C(=O)O)c(O)c(=O)[nH]1		HCV polymerase	Hepatitis C virus				IC50	<25 µM
CC(C)(CCCCCN=C(NC#N)Oc1ccccc1)CN(C[C@@H](O)[C@H](Cc1ccccc1)NC(=O)O[C@H]1CO[C@H]2OCC[C@H]21)S(=O)(=O)c1ccc2c(c1)OCO2		Protease	HIV-1		fluorescence		Ki	<0.001 µM
CS(=O)(=O)CCCN1C(=O)c2ccccc2C(C(=O)c2ccccc2)C1=O		Protease	Rhinovirus			Serotype 2	IC50	31.3 µM
C=C(C)OC(=O)NCCCCC(C)(C)CN(C[C@@H](O)[C@H](Cc1ccccc1)NC(=O)O[C@H]1CO[C@H]2OCC[C@H]21)S(=O)(=O)c1ccc2c(c1)OCO2		Protease	HIV-1		fluorescence		Ki	<0.001 µM
CCCN(CCC)C(=O)O[C@@H]([C@@H]1OC(C(=O)O)=C[C@H](N)[C@H]1NC(=O)O)[C@H](C)CO		Sialidase	Influenza B virus			Victoria	IC50	2 µM
CCCCS(=O)(=O)NCCCCC(C)(C)CN(C[C@@H](O)[C@H](Cc1ccccc1)NC(=O)O[C@H]1CO[C@H]2OCC[C@H]21)S(=O)(=O)c1ccc2c(c1)OCO2		Protease	HIV-1		fluorescence		Ki	<0.001 µM
COc1ccccc1C(=O)Nc1nnc(NCCc2ccccc2)s1		Polymerase	Human cytomegalovirus				IC50	>25 µM
O=C(Cc1csc2ccccc12)Nc1cscc1-c1nc(C(=O)O)c(O)c(=O)[nH]1		HCV polymerase	Hepatitis C virus				IC50	<25 µM
O=C(Nc1nnc(NCCCCc2ccccc2)s1)c1ccc(Br)cc1		Polymerase	Human cytomegalovirus				IC50	>25 µM
CCCNC(=O)NCCCCC(C)(C)CN(C[C@@H](O)[C@H](Cc1ccccc1)NC(=O)O[C@H]1CO[C@H]2OCC[C@H]21)S(=O)(=O)c1ccc2c(c1)OCO2		Protease	HIV-1		fluorescence		Ki	<0.001 µM
COc1ccc(N2CCN(c3cncc(-c4cccc(C)c4C)n3)CC2)cc1OC		UL97 kinase	Cytomegalovirus				IC50	<100 µM
CC(C)(CCNS(=O)(=O)c1ccc(F)cc1)CN(C[C@@H](O)[C@H](Cc1ccccc1)NC(=O)O[C@H]1CO[C@H]2OCC[C@H]21)S(=O)(=O)c1ccc2c(c1)OCO2		Protease	HIV-1		fluorescence		Ki	<0.001 µM
O=C(O)c1nc(-c2cccc(C#CCO)c2)[nH]c(=O)c1O		HCV polymerase	Hepatitis C virus				IC50	<100 µM
CCSC(=O)NCCCCC(C)(C)CN(C[C@@H](O)[C@H](Cc1ccccc1)NC(=O)O[C@H]1CO[C@H]2OCC[C@H]21)S(=O)(=O)c1cccc(N)c1		Protease	HIV-1		fluorescence		Ki	<0.001 µM
CC1(C)C2CC[C@@H](CNc3nnc(NC(=O)c4ccc(C#N)cc4)s3)C1C2		Polymerase	Human cytomegalovirus				IC50	>25 µM
C[C@H](CO)[C@@H](OC(=O)N1CCNCC1)[C@@H]1OC(C(=O)O)=C[C@H](N=C(N)N)[C@H]1NC(=O)O		Sialidase	Influenza B virus			Victoria	IC50	0.033 µM
CC(C)(CCNC(=O)C1CC1)CN(C[C@@H](O)[C@H](Cc1ccccc1)NC(=O)O[C@H]1CO[C@H]2OCC[C@H]21)S(=O)(=O)c1ccc2c(c1)OCO2		Protease	HIV-1		fluorescence		Ki	<0.001 µM

A second listing of 4 rows from above:

compound,changes,protein,organism,dose,method,strain or isolate,endpoint,value
O=C(Nc1nnc(NC2CCCCCC2)s1)c1cc(F)cc(F)c1,,Polymerase,Human cytomegalovirus,,,,IC50,>25 µM
C[C@H](CO)[C@@H](OC(=O)NCCCCNCCN)[C@@H]1OC(C(=O)O)=C[C@H](N=C(N)N)[C@H]1NC(=O)O,,Sialidase,Influenza A virus,,,H3N2 AICHI,IC50,0.077 µM
COc1ccccc1C(=O)Nc1nnc(NCCc2ccccc2)s1,,Polymerase,Human cytomegalovirus,,,,IC50,>25 µM
CSCCCN1C(=O)c2ccccc2C(C(=O)c2ccccc2)C1=O,,Protease,Rhinovirus,,,Serotype 14,IC50,56 µM